Pooled drug test results. Numbers come from NIAID ChemDB, via PubChem.

Inhibition is in % at the dose shown (toxicity tests: loss of growth or viability). MIC bound: limit read from a one-dose screen. Rows are shuffled and stem from different studies. Blank or dashed fields: not listed here. ICn is the concentration giving n% inhibition.

compound	read by	endpoint	tested at	species	protein	kind	strain or isolate	result
CC1=C(CCC(C)CO)OC2CC3C4CCC5CC(O)CCC5(C)C4CCC3(C)C12	BACTEC	MIC bound	-	Mycobacterium tuberculosis	-	culture	H37Rv	>12.5 µg/mL
COc1cccc(-c2cncc(N3CCN(c4cccc(Cl)c4)CC3)n2)c1	-	inhibition	1 µM	Cytomegalovirus	UL97 kinase	target	-	<50%
CCOC(=O)C1=C(NC)C(=O)N(C)C1c1ccccc1	BACTEC	MIC	-	Mycobacterium tuberculosis	-	culture	H37Rv	≥12.8 µg/mL
Fc1ccc(N2CCN(c3cncc(-c4cccc(F)c4)n3)CC2)cc1	-	inhibition	10 µM	Cytomegalovirus	UL97 kinase	target	-	>15%
COc1cc(NCCCO)c2ncccc2c1.Cl	-	MIC	-	Mycobacterium tuberculosis	-	culture	H37Rv	50 µg/mL
Cc1cc(C)cc(-c2cncc(N3CCN(c4ccncc4)CC3)n2)c1	-	IC50	-	Cytomegalovirus	UL97 kinase	target	-	<10 µM
COc1cc(N=Nc2ccc(C(=O)N(C)C)cc2)c(C)cc1N	BACTEC	inhibition	12.5 µg/mL	Mycobacterium tuberculosis	-	culture	H37Rv	13%
CCCCCCCCCCCCSC(CC(=O)c1ccccc1)c1ccccc1	-	MIC	-	Mycobacterium tuberculosis	-	culture	H37Rv	50 µg/mL
Fc1ccc(N2CCCCC2)c(NC(=S)c2ccncc2)c1	kinase activity	inhibition	10 µM	-	ZIPK	host protein	-	-6%
Nc1nc2ccccc2n1/N=C/c1ccccc1[N+](=O)[O-]	BACTEC	inhibition	12.5 µg/mL	Mycobacterium tuberculosis	-	culture	H37Rv	19%
COc1ccc(-c2cncc(N3CCC(c4ccccc4)CC3)n2)cc1OC	-	inhibition	1 µM	Cytomegalovirus	UL97 kinase	target	-	<50%
CCN(CC)c1ccc(C=O)cc1	-	MIC	-	Mycobacterium tuberculosis	-	culture	H37Rv	>100 µg/mL
CCOc1c(N=Nc2ccccc2Cl)c(-c2ccccc2)nn1C(=S)S	BACTEC	inhibition	12.5 µg/mL	Mycobacterium tuberculosis	-	culture	H37Rv	5%
Cl.Oc1ccc(Nc2ccnc3cc(Cl)ccc23)cc1CN1CCCCC1	-	MIC	-	Mycobacterium tuberculosis	-	culture	H37Rv	>100 µg/mL
COc1ccccc1N1CCN(c2cncc(-c3ccc(C(F)(F)F)cc3)n2)CC1	-	inhibition	10 µM	Cytomegalovirus	UL97 kinase	target	-	>15%
O=C(c1cccs1)c1ccccc1I	-	MIC	-	Mycobacterium tuberculosis	-	culture	H37Rv	50 µg/mL
Fc1cccc(-c2cncc(N3CCN(c4ccncc4)CC3)n2)c1	-	inhibition	10 µM	Cytomegalovirus	UL97 kinase	target	-	>15%
NNC(=O)C12C3(Cl)C4(Cl)C(Cl)(Cl)C5(Cl)C3(Cl)C1(Cl)C5(Cl)C42Cl	BACTEC	inhibition	12.5 µg/mL	Mycobacterium tuberculosis	-	culture	H37Rv	60%
O=[N+]([O-])c1ccc(-c2ccccn2)cc1	-	MIC	-	Mycobacterium tuberculosis	-	culture	H37Rv	>100 µg/mL
COc1ccccc1N1CCN(CCc2c[nH]c3cc4c(cc23)OCO4)CC1.O=C(O)[C@H](O)[C@@H](O)C(=O)O	resazurin	inhibition	6.25 µg/mL	Mycobacterium tuberculosis	-	culture	H37Rv	16%
O=[N+]([O-])c1ccc2c(c1)oc1ccccc12	-	MIC	-	Mycobacterium tuberculosis	-	culture	H37Rv	100 µg/mL

2 of the rows above, restated:

compound,read by,endpoint,tested at,species,protein,kind,strain or isolate,result
O=C(c1cccs1)c1ccccc1I,-,MIC,-,Mycobacterium tuberculosis,-,culture,H37Rv,50 µg/mL
CCOC(=O)C1=C(NC)C(=O)N(C)C1c1ccccc1,BACTEC,MIC,-,Mycobacterium tuberculosis,-,culture,H37Rv,≥12.8 µg/mL